Laboratory results from PubChem BioAssay AID588335 (The Scripps Research Institute Molecular Screening Center, 2011).
The list shows a part of the results, in another mix than the full data. Calls of active or inactive are those of the source. Rule as the data show it: active = inhibition above about 30%; inactive = the rest.

test: inhibition of GDH and TPI enzymes – biochemical, absorbance, full deck, artefact control for M. tuberculosis FBA inhibitor project, primary screen (AID 588335); settings: GDH-TPI coupled enzyme counterscreen, NADH absorbance; at 4.8 µM; stronger effect = higher value;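 also: 0% = DMSO wells and 100% = wells lacking the enzyme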

Compound | inhibition
Nc1cccc([As](=O)(O)c2ccccc2)c1 | inactive: -13.6%
O=[As](O)(c1cccs1)c1cccs1 | inactive: 2.46%
Cc1ccc(OCC(=O)OC2CN3CCC2CC3)cc1 (configuration not stated) | inactive: 9.81%
O=P1(Nc2ccc(Br)cn2)COc2ccccc2OC1 | inactive: -7.77%
NS(=O)(=O)c1cccc(NC(=O)COC(=O)C(O)(c2ccccc2)c2ccccc2)c1 | inactive: -0.69%
O=P1(Nc2ncccn2)COc2ccccc2OC1 | inactive: -6.71%
CN(C)C1(CNC(=O)c2ccc(S(C)(=O)=O)cc2)CCCCC1 | inactive: -6.15%
CCCC1OP(=O)(Nc2ccccc2)OCC1CC (configuration not stated) | inactive: 1.38%
O=C(/C=C/c1ccccc1)OC1CN2CCC1CC2 (configuration not stated) | inactive: -12.8%
CC1CCC(C(C)C)C(OP(=O)(Nc2ccccn2)c2ccccc2)C1 (configuration not stated) | inactive: -0.96%
Cc1ccc(C(=O)OC2CN3CCC2CC3)cc1 (configuration not stated) | inactive: 5%
Cc1nn(-c2ccccc2)c2c1P(=O)(N1CCOCC1)N(C)C(c1ccccc1)=N2 (configuration not stated) | inactive: -1.13%
CC(C)/C=N\N=C(\N)N[N+](=O)[O-] | inactive: 0.32%
CN(C(=O)Cc1ccc(Cl)c(Cl)c1)[C@@H]1CCCC[C@H]1N1CCCC1 | inactive: 9.84%
CC1(CBr)Cn2c(nc3ccccc3c2=O)S1 (configuration not stated) | inactive: -1.88%
COc1ccccc1CNC(=O)COC(=O)C(O)(c1ccccc1)c1ccccc1 | inactive: 1.42%
CC(C)(C)C(=O)NC(Sc1ncccn1)C(Cl)(Cl)Cl (configuration not stated) | inactive: -3.7%
O=P1(N(CCCl)CCCl)NCCC(C(F)(F)F)O1 (configuration not stated) | inactive: 8.23%
Clc1n[nH]nc1-c1nn[nH][15n]1 | inactive: 11%
CCOP(=O)(NC(=NC(C)c1ccccc1)NC(C)c1ccccc1)OCC (configuration not stated) | inactive: 1.09%
O=P1(Nc2ccccn2)COc2ccccc2OC1 | inactive: 6.21%
CCC1=CC2Cc3nc4ccc(Cl)cc4c(N)c3C(C1)C2 (configuration not stated) | inactive: 14.4%
CCOP(=O)(Nc1ccc(C)cn1)OCC | inactive: -1.47%
CN(CCCl)Cc1cc(Cl)c(NC2=NCCN2)c(Cl)c1 | inactive: -0.52%
CCOP(=O)(Nc1cccc2ccccc12)OCC | inactive: -1.29%
COc1cc(C2NCCC3(OCCO3)C2(C)C)cc(OC)c1OC (configuration not stated) | inactive: 7.78%

Compound | inhibition
Nc1cccc2c([As](=O)(O)O)cccc12 | inactive: 12.2%
Cc1ccc(NCCc2c([N+](=O)[O-])cc([N+](=O)[O-])cc2[N+](=O)[O-])cc1 | inactive: 10.7%
CCCOP(=S)(Nc1nc(N)cc(=O)[nH]1)OCCC | inactive: -7.81%
Cc1cccc(OCC(=O)OC2CN3CCC2CC3)c1 (configuration not stated) | inactive: 4.27%
O=[As](O)(c1cccc(O)c1)c1cccc(O)c1 | inactive: 1.44%
O=C(OC1CN2CCC1CC2)c1ccc(Cl)cc1 (configuration not stated) | inactive: -0.77%
CS(=O)(=O)c1ccc(Cl)c(NC(=O)COC(=O)C(O)(c2ccccc2)c2ccccc2)c1 | inactive: 7.33%
O=[As](O)(O)c1cccnc1 | inactive: 3.7%
COc1cc(C(=O)NCC2(N3CCOCC3)CCCCC2)cc(Cl)c1OC(C)C | inactive: -11.5%
CN(C(=O)Cc1ccccc1)[C@@H]1CC[C@]2(CCCO2)C[C@H]1N1CCCC1 | inactive: 6.74%
CCOP1(=S)c2c(C)nn(CCC#N)c2N=C(c2ccc(F)cc2)N1C (configuration not stated) | inactive: 14.3%
N#CCCN(C(=O)COC(=O)C(O)(c1ccccc1)c1ccccc1)c1ccc(F)cc1 | inactive: 2.76%
CN(C(=O)Cc1ccc(Cl)c(Cl)c1)[C@H]1CC[C@@]2(CCCO2)C[C@@H]1N1CCCC1 | inactive: -11.1%
O=[N+]([O-])c1ccc2c(c1)nnn2O | inactive: 18.9%
CN(C)C(=O)c1cc([N+](=O)[O-])cc2c1-c1c(cc([N+](=O)[O-])cc1[N+](=O)[O-])C2=O | inactive: 13.8%
NC(=O)Nc1ccc([As](=O)(O)O)cc1 | inactive: -1.72%
Nc1ccccc1[As](=O)(O)c1ccccc1 | inactive: 5.26%
O=C(O)COc1ccc([As](=O)(O)O)cc1[N+](=O)[O-] | inactive: 16%
O=P(Nc1nccs1)(Oc1ccccc1)Oc1ccccc1 | inactive: 10.4%
O=P(Nc1nccs1)(c1ccccc1)c1nc2ccccc2s1 (configuration not stated) | inactive: -1.89%
CCOP1(=S)c2c(C)nn(CCC#N)c2N=C(c2ccccc2F)N1C (configuration not stated) | inactive: -7.05%
CS(=O)(=O)c1cc([N+](=O)[O-])c2no[n+]([O-])c2c1 | inactive: 20.6%
O=[N+]([O-])c1cc([N+](=O)[O-])c(-c2ccn[nH]2)s1 | inactive: 18.9%
CC(C)NC(=O)NP(=O)(Oc1ccccc1)Oc1ccccc1 | inactive: 4.42%
O=C(OC1CN2CCC1CC2)c1cccc2[nH]cnc12 (configuration not stated) | inactive: 5.62%
CCN(CC)C(=S)SC(NC=O)C(Cl)(Cl)Cl (configuration not stated) | inactive: 2.62%

Compound | inhibition
ClCCSc1nnc(-c2cccnc2)o1 | inactive: -5.91%
COC(=O)C1(C)COP(=O)(N2CCCCCC2)OC1 (configuration not stated) | inactive: -1.38%
CC(C)c1ccc(OP(=O)(Nc2ccccn2)Oc2ccccc2F)cc1 (configuration not stated) | inactive: 10.3%
Cc1ccc(OP(=O)(Nc2ccc([N+](=O)[O-])cn2)Oc2ccc(C)cc2)cc1 | inactive: 4.29%
Cc1ccc2nc3c(c(C)c2c1)CC(C(Cl)Cl)S3 (configuration not stated) | inactive: 13.6%
O=[N+]([O-])c1ccc(-c2cc([N+](=O)[O-])c(O)c([N+](=O)[O-])c2)cc1 | active: 35.7%
COc1cc(C(=O)NCC2(N3CCOCC3)CCCCC2)ccc1OCC(C)C | inactive: 4.9%
O=[As](O)(c1ccc(O)cc1)c1ccccc1O | inactive: -13.6%
C[As](=O)(O)c1cccc(C(=O)O)c1 | inactive: -10.8%
O=[N+]([O-])c1cc(Oc2ccc([N+](=O)[O-])cc2C(F)(F)F)cc([N+](=O)[O-])c1 | inactive: -5.96%
COc1ccc(N/C(=N/P(=O)(N2CCOCC2)N2CCOCC2)N2CCOCC2)cc1 | inactive: -0.63%
O=P1(N(CCCl)CCCl)Nc2ccccc2N1 | inactive: 7.05%
O=P1(N(CCCl)CCCl)OCCCN1CCCl (configuration not stated) | inactive: -3.21%
COc1cc(I)ccc1[As](=O)(O)O | inactive: -6.28%
COc1ccc2nc(NP(=O)(c3ccccc3)c3ccccc3)sc2c1 | inactive: -1.22%
Cc1c2c(nc3ccccc13)SC(C(Cl)Cl)C2 (configuration not stated) | inactive: 15%
Cc1cc(=O)[nH]c(N[N+](=O)[O-])n1 | inactive: 11.9%
O=C(OC1CN2CCC1CC2)C12CC3CC(CC(C3)C1)C2 (configuration not stated) | inactive: -10.6%
CCC(C)N(CC(C)C)C(=S)SC(NC(C)=O)C(Cl)(Cl)Cl (configuration not stated) | inactive: -1.54%
CSc1ccc(Nc2c([N+](=O)[O-])cc([N+](=O)[O-])cc2[N+](=O)[O-])cc1 | active: 31.9%
O=C(OC1CN2CCC1CC2)c1cccc([N+](=O)[O-])c1 (configuration not stated) | inactive: 2.54%
CCOC(=O)c1ccc(NC(=O)C(C)(CCl)SC)cc1 (configuration not stated) | inactive: -8.43%
O=C(O)C(=O)c1ccc(N(CCCl)CCCl)cc1 | inactive: 28.3%
O=C(Nc1ccncc1[N+](=O)[O-])c1ccc([N+](=O)[O-])cc1[N+](=O)[O-] | inactive: 5.71%
O=C(COc1ccccc1)OC1CN2CCC1CC2 (configuration not stated) | inactive: 0.39%
COP1(=S)c2c(C)nn(CCC#N)c2N=C(c2ccc(F)cc2)N1C (configuration not stated) | inactive: -2.35%

Compound | inhibition
O=P(Nc1ccccn1)(c1cccc2ccccc12)c1cccc2ccccc12 | inactive: -3.82%
Cc1cc(SC(NC=O)C(Cl)(Cl)Cl)ncn1 (configuration not stated) | inactive: 9.91%
O=[N+]([O-])c1ccc(Nc2ccc(Oc3ccc([N+](=O)[O-])cc3[N+](=O)[O-])cc2)c([N+](=O)[O-])c1 | inactive: 13%
CCOC(=O)Nc1cccc([As](=O)(O)O)c1 | inactive: 11%
COP(=O)(OC)N1CC1c1ccccc1 (configuration not stated) | inactive: -3.54%
Cc1cc(SC(NC(=O)c2ccccc2)C(Cl)(Cl)Cl)nc(C(C)C)n1 (configuration not stated) | inactive: 6.87%
CCCCOc1ccc(C(=O)NCC2(N3CCCCC3)CCCCC2)cc1OC | inactive: -3.76%
CCOC(=O)Nc1ccc([As](=O)(O)O)c(O)c1 | inactive: 3.38%
O=C(O)C(O)c1ccc(N(CCCl)CCCl)cc1 (configuration not stated) | inactive: 9.33%
CC1CCNP(=O)(N(CCCl)CCCl)O1 (configuration not stated) | inactive: 0%
O=C(O)CNc1ccc([As](=O)(O)O)cc1 | inactive: 0.35%
COC(=O)C1(C)COP(=O)(Nc2ccccc2)OC1 (configuration not stated) | inactive: 7.8%
O=[N+]([O-])c1cccc(NC2=NCC(CBr)S2)c1 (configuration not stated) | inactive: 22.4%
O=[N+]([O-])c1ncn(CCn2ncnc2[N+](=O)[O-])n1 | inactive: 0%
CC(C)(C)C(=O)NC(Sc1ccncn1)C(Cl)(Cl)Cl (configuration not stated) | inactive: -3.38%
O=C(Nc1cc([As](=O)(O)O)ccc1O)c1ccccc1 | inactive: 3.35%
O=P1(N(CCCl)CCCl)OCCCS1 (configuration not stated) | inactive: 4.41%
CC1CCN(C(=O)Oc2c(Cl)cc(Cl)c3cccnc23)CC1 | inactive: -3.47%
c1cc(-c2nn[nH]n2)ccc1-c1nn[nH]n1 | inactive: 6.19%
CN(C)C(=O)OCCc1n(C)cc[n+]1C | inactive: -5.15%
CC(C)c1nc(Nc2ccccc2)n(P(=O)(N(C)C)N(C)C)n1 | inactive: 7.08%
CC(C)=N/N=C(\N)N[N+](=O)[O-] | inactive: 0%
CCN(/C(=N/P(=O)(N1CCOCC1)N1CCOCC1)N1CCOCC1)c1ccc(OC)cc1 | inactive: 3.1%
C[N+]1=C2C=CC=CC=C2SC12C([N+](=O)[O-])=CC([N+](=O)[O-])=C[C-]2[N+](=O)[O-] (configuration not stated) | inactive: 9.96%
